# Positions that govern dimerization of the HIV-1 5' RNA

Values reported by Ye et al. 2022 (doi:10.1038/s41594-022-00746-2).

The 5' region of HIV-1 NL4-3 RNA (positions 1-437):
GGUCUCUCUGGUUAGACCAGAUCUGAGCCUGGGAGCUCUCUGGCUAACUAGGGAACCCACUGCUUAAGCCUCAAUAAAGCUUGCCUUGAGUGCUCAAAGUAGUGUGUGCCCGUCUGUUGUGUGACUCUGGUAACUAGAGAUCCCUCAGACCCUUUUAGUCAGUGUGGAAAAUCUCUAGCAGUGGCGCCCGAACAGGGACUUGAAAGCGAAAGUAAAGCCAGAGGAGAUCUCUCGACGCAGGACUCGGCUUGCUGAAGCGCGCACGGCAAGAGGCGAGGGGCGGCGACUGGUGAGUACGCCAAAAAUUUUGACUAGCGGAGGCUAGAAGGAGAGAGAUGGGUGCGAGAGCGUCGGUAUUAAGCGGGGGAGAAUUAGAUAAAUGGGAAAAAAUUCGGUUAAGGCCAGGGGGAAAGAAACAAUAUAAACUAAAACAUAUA

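Randomly mutated transcripts starting with one, two or three G (1G, 2G, 3G), capped or uncapped, were folded for 30 min at 37 °C. High salt was 300 mM KCl and 5 mM MgCl2, low salt 40 mM KCl and 0.1 mM MgCl2; monomer and dimer were parted on a native gel. Kdimer compares mutation frequencies in monomer and dimer, corrected for sequencing errors.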

Scale: median log2 Kdimer over the changes at a position; positive = changes inhibit dimerization, negative = changes enhance it. One numbering serves 1G, 2G and 3G. A position is written with its base where known.

position,3G capped high-salt,1G capped high-salt,2G capped low-salt
G121,-0.40,-0.35,-0.60
501,0.01,0.25,-0.01
U228,0.04,0.06,0.34
U22,0.16,0.22,-0.02
C127,-0.25,-0.35,0.38
455,0.05,0.02,-0.07
A55,0.10,0.17,0.18
443,0.13,0.05,0.14
G123,-0.30,-0.38,0.17
511,0.03,0.09,0.05
461,-0.03,0.03,0.02
C110,0.02,-0.20,0.46
453,-0.05,-0.20,-0.12
C238,2.80,2.54,1.72
G350,0.00,-0.03,0.18
G279,-0.25,-0.26,0.03
C258,4.54,3.93,3.18
A98,-0.18,0.16,-0.05
U244,0.38,0.49,1.42
C151,-0.01,0.03,-0.17
495,-0.03,-0.04,0.10
A97,0.02,0.20,0.17
A423,0.12,0.07,-0.02
A360,-0.08,-0.05,-0.35
500,0.01,-0.12,-0.12
U61,0.16,0.44,0.05
U373,0.03,0.11,0.06
G400,-0.01,-0.07,-0.05
G344,-0.01,-0.03,-0.38
505,-0.19,-0.05,0.06
449,-0.02,0.12,0.12
G310,-0.02,0.16,-0.08
U357,0.02,0.00,0.00
C343,0.13,0.03,0.17
G275,2.89,2.55,1.74
G166,-0.11,-0.26,0.23
457,-0.01,-0.16,0.04
C36,-0.30,-0.15,-0.32
A378,0.08,0.04,-0.02
G364,-0.04,-0.07,-0.20
A336,0.14,0.05,0.38
G315,0.17,0.12,0.55
498,0.12,0.17,-0.06

4 of these entries, quoted again:

| position | 3G capped high-salt | 1G capped high-salt | 2G capped low-salt |
|---|---|---|---|
| A423 | 0.12 | 0.07 | -0.02 |
| G275 | 2.89 | 2.55 | 1.74 |
| U357 | 0.02 | 0.00 | 0.00 |
| G364 | -0.04 | -0.07 | -0.20 |

The source gives no letters past position 437.